A mixed list of measured activities; the numbers were collected in NIAID ChemDB.

Common to all: whole-cell or culture tests; species: HIV-1

Conditions beyond the fields shown may differ between rows.

| SMILES | measure | cells | read by | mutations | strain or isolate | value |
|---|---|---|---|---|---|---|
| Cn1cc(CN2CCn3c(nc(C(=O)NCc4ccc(F)cc4)c(O)c3=O)C2(C)C)nn1 | EC50 | MT-4 | p24 |  |  | <1 µM |
| Cc1cnc(C(=O)NC(C)(C)C(=O)N[C@@]23CC[C@]4(C)[C@H](CC[C@@H]5[C@@]6(C)CC[C@H](OC(=O)C7C[C@@H](C(=O)O)C7(C)C)C(C)(C)[C@@H]6CC[C@]54C)C2=C(C(C)C)C(=O)C3)cn1 | EC50 | MT-4 | p24 | V7A | NL4-3 | <0.01 µM |
| CC1NCCn2c1nc(C(=O)NCc1ccc(F)cc1)c(O)c2=O | EC95 | MT-4 | p24 |  |  | <50 µM |
| CC(C)C1=C2[C@H]3CC[C@@H]4[C@@]5(C)CC[C@H](OC(=O)[C@H]6C[C@@H](C(=O)O)C6(C)C)C(C)(C)[C@@H]5CC[C@@]4(C)[C@]3(C)CC[C@@]2(CCNCC2(NC(=O)c3ccc(Cl)cc3)CC2)CC1=O | EC50 | MT-2 | p24 / ELISA |  | 92HT599 | <1 µM |
| CC(C)C1=C2[C@H]3CC[C@@H]4[C@@]5(C)CC[C@H](OC(=O)C6C[C@@H](C(=O)O)C6(C)C)C(C)(C)[C@@H]5CC[C@@]4(C)[C@]3(C)CC[C@@]2(NC(=O)C(C)(C)NC(=O)c2ccc(S(C)(=O)=O)cc2)CC1=O | EC50 | MT-4 | p24 | V7A | NL4-3 | >0.05 µM |
| CC(=O)NC1CN(C)CCn2c1nc(C(=O)NCc1ccc(F)cc1)c(O)c2=O | EC50 | MT-4 | p24 |  |  | <50 µM |
| CC(C)C1=C2[C@H]3CC[C@@H]4[C@@]5(C)CC[C@H](OC(=O)C6C[C@@H](C(=O)O)C6(C)C)C(C)(C)[C@@H]5CC[C@@]4(C)[C@]3(C)CC[C@@]2(NC(=O)C(C)(C)NC(=O)c2ccc(C(F)(F)F)cc2)CC1=O | EC50 | MT-4 | p24 |  | NL4-3 | <0.005 µM |
| CC(C)C1=C2[C@H]3CC[C@@H]4[C@@]5(C)CC[C@H](OC(=O)[C@H]6C[C@@H](C(=O)O)C6(C)C)C(C)(C)[C@@H]5CC[C@@]4(C)[C@]3(C)CC[C@@]2(CCNCC(C)(C)NC(=O)CN2CCOCC2)CC1=O | EC50 | MT-2 | p24 / ELISA |  | 92HT599 | <1 µM |
| CC/C=C\C/C=C\C/C=C\C/C=C\C/C=C\C/C=C\CCC(=O)O[C@@H]1[C@@H](C)[C@@]2(O)[C@@H](C=C(CO)C[C@]3(O)C(=O)C(C)=C[C@@H]23)[C@@H]2C(C)(C)[C@]12OC(C)=O | EC50 | C8166 | p24 / ELISA |  | IIIB | 0.0083 µM |
| CN1CCn2c(nc(C(=O)NCc3ccc(F)cc3)c(O)c2=O)C1 | EC50 | MT-4 | p24 |  |  | <50 µM |
| CC(C)C1=C2[C@H]3CC[C@@H]4[C@@]5(C)CC[C@H](OC(=O)C6C[C@@H](C(=O)O)C6(C)C)C(C)(C)[C@@H]5CC[C@@]4(C)[C@]3(C)CC[C@@]2(NC(=O)C(C)(C)NC(=O)c2cnccn2)CC1=O | EC50 | MT-4 | p24 | V7A | NL4-3 | <0.01 µM |
| CC(C)C1=C2[C@H]3CC[C@@H]4[C@@]5(C)CC[C@H](OC(=O)[C@H]6C[C@@H](C(=O)O)C6(C)C)C(C)(C)[C@@H]5CC[C@@]4(C)[C@]3(C)CC[C@@]2([C@@H](O)CNC(=O)C(C)(C)NC(=O)c2ccc(N3CCCCC3)cc2)CC1=O | EC50 | MT-2 | p24 / ELISA |  | 92HT599 | <1 µM |
| C/C=C(/C)C(=O)O[C@@]12[C@H](O)[C@@H](C)[C@@]3(O)[C@@H](C=C(CO)C[C@]4(O)C(=O)C(C)=C[C@@H]34)[C@@H]1C2(C)C | EC50 | C8166 | p24 / ELISA |  | IIIB | 44.5 µM |
| CC(C)C1=C2[C@H]3CC[C@@H]4[C@@]5(C)CC[C@H](OC(=O)C6C[C@@H](C(=O)O)C6(C)C)C(C)(C)[C@@H]5CC[C@@]4(C)[C@]3(C)CC[C@@]2(NC(=O)C(C)(C)NC(=O)c2cccnc2N2CCOCC2)CC1=O | EC50 | MT-4 | p24 |  | NL4-3 | <0.005 µM |
| CC(=O)OCC1=C[C@H]2[C@@H]3C(C)(C)[C@]3(O)[C@H](OC(=O)CCc3ccccc3)[C@@H](C)[C@]2(O)[C@@H]2C=C(C)C(=O)[C@@]2(O)C1 | EC50 | C8166 | p24 / ELISA |  | IIIB | 46.3 µM |
| CC(C)C1=C2[C@H]3CC[C@@H]4[C@@]5(C)CC[C@H](OC(=O)[C@H]6C[C@@H](C(=O)O)C6(C)C)C(C)(C)[C@@H]5CC[C@@]4(C)[C@]3(C)CC[C@@]2(CC(=O)NCC(C)(C)NC(=O)c2ccc(Cl)cc2OCCN2CCCC2)CC1=O | EC50 | MT-2 | p24 / ELISA |  | 92HT599 | <1 µM |
| Cc1cn(-c2ccc(C(=O)NC(C)(C)C(=O)N[C@@]34CC[C@]5(C)[C@H](CC[C@@H]6[C@@]7(C)CC[C@H](OC(=O)C8C[C@@H](C(=O)O)C8(C)C)C(C)(C)[C@@H]7CC[C@]65C)C3=C(C(C)C)C(=O)C4)cc2)cn1 | EC50 | MT-4 | p24 |  | NL4-3 | >0.01 µM |
| NC(=O)CCNC(=O)c1ccccc1SCc1ccc(OP2(=O)OCc3ccccc3O2)cc1 | EC50 | Macrophage | XTT |  |  | 0.18 µM |
| CC1(C)c2nc(C(=O)NCc3ccc(F)cc3)c(O)c(=O)n2CN1Cc1cccnc1 | EC95 | MT-4 | p24 |  |  | <1 µM |
| CC1=C[C@H]2[C@@]3(O)[C@H](C)[C@@H](O)[C@]4(OC(=O)CCc5ccccc5)[C@H]([C@@H]3C=C(CO)C[C@]2(O)C1=O)C4(C)C | EC50 | C8166 | p24 / ELISA |  | IIIB | 11.14 µM |
| Cc1ccc(C(=O)NC(C)(C)CNCC[C@@]23CC[C@]4(C)[C@H](CC[C@@H]5[C@@]6(C)CC[C@H](OC(=O)[C@H]7C[C@@H](C(=O)O)C7(C)C)C(C)(C)[C@@H]6CC[C@]54C)C2=C(C(C)C)C(=O)C3)nc1 | EC50 | MT-2 | p24 / ELISA |  | 92HT599 | <1 µM |
| C=C(C)[C@@H]1CC[C@]2(C(=O)NCCCCCCCCC(=O)N[C@H](CCC(N)=O)C(=O)OC)CC[C@]3(C)[C@H](CC[C@@H]4[C@@]5(C)CC[C@H](OC(=O)CC(C)(C)C(=O)O)C(C)(C)[C@@H]5CC[C@]43C)[C@@H]12 | EC50 |  | absorbance | V362I | NL4-3 | 0.016 µM |
| CC(C)C1=C2[C@H]3CC[C@@H]4[C@@]5(C)CC[C@H](OC(=O)C6C[C@@H](C(=O)O)C6(C)C)C(C)(C)[C@@H]5CC[C@@]4(C)[C@]3(C)CC[C@@]2(NC(=O)C(C)(C)NC(=O)c2nccn2C)CC1=O | EC50 | MT-4 | p24 |  | NL4-3 | 0.00501–0.01 µM |
| CCCCCCCCCC(=O)O[C@@]12[C@H](O)[C@@H](C)[C@@]3(O)[C@@H](C=C(CO)C[C@]4(O)C(=O)C(C)=C[C@@H]34)[C@@H]1C2(C)C | EC50 | C8166 | p24 / ELISA |  | IIIB | 0.5635 µM |
| CC(C)C1=C2[C@H]3CC[C@@H]4[C@@]5(C)CC[C@H](OC(=O)[C@H]6C[C@@H](C(=O)O)C6(C)C)C(C)(C)[C@@H]5CC[C@@]4(C)[C@]3(C)CC[C@@]2(CCNCC(CCN)NC(=O)c2ccc(Cl)cc2)CC1=O | EC50 | MT-2 | p24 / ELISA |  | 92HT599 | <1 µM |
| CC(C)C1=C2[C@H]3CC[C@@H]4[C@@]5(C)CC[C@H](OC(=O)C6C[C@@H](C(=O)O)C6(C)C)C(C)(C)[C@@H]5CC[C@@]4(C)[C@]3(C)CC[C@@]2(NC(=O)C(C)(C)NC(=O)c2cnn3cccnc23)CC1=O | EC50 | MT-4 | p24 |  | NL4-3 | <0.005 µM |
| CN(C)CC1c2nc(C(=O)NCc3ccc(F)cc3)c(O)c(=O)n2CCN1C(=O)C(=O)N(C)C | EC95 | MT-4 | p24 |  |  | <50 µM |

Repeating the final 3 entries:

| SMILES | measure | cells | read by | mutations | strain or isolate | value |
|---|---|---|---|---|---|---|
| CC(C)C1=C2[C@H]3CC[C@@H]4[C@@]5(C)CC[C@H](OC(=O)[C@H]6C[C@@H](C(=O)O)C6(C)C)C(C)(C)[C@@H]5CC[C@@]4(C)[C@]3(C)CC[C@@]2(CCNCC(CCN)NC(=O)c2ccc(Cl)cc2)CC1=O | EC50 | MT-2 | p24 / ELISA |  | 92HT599 | <1 µM |
| CC(C)C1=C2[C@H]3CC[C@@H]4[C@@]5(C)CC[C@H](OC(=O)C6C[C@@H](C(=O)O)C6(C)C)C(C)(C)[C@@H]5CC[C@@]4(C)[C@]3(C)CC[C@@]2(NC(=O)C(C)(C)NC(=O)c2cnn3cccnc23)CC1=O | EC50 | MT-4 | p24 |  | NL4-3 | <0.005 µM |
| CN(C)CC1c2nc(C(=O)NCc3ccc(F)cc3)c(O)c(=O)n2CCN1C(=O)C(=O)N(C)C | EC95 | MT-4 | p24 |  |  | <50 µM |

ECn is the concentration giving n% inhibition of infection, replication or growth. Two numbers with a dash give a range or band. An empty or dashed field is not shown.